Source: ChEMBL document CHEMBL4364262 (J Med Chem, 2019)

Sequences of proteins named here, by UniProt entry; tags and fusion partners are left off.
UniProt P04757, whole entry, looked up: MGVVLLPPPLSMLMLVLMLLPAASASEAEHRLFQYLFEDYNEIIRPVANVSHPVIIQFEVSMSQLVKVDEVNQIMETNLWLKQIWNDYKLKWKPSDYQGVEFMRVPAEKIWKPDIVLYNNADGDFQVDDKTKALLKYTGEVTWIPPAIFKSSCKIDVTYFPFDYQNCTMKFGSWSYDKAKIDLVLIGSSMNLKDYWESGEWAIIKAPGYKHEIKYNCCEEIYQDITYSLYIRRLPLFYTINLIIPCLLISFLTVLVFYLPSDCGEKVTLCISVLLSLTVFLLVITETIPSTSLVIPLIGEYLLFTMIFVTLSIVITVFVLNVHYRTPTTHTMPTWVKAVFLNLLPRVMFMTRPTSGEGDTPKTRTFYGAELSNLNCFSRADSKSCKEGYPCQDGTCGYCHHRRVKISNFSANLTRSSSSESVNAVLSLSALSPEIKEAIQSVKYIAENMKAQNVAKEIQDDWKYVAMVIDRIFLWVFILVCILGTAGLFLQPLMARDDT
UniProt P12390, whole entry, looked up: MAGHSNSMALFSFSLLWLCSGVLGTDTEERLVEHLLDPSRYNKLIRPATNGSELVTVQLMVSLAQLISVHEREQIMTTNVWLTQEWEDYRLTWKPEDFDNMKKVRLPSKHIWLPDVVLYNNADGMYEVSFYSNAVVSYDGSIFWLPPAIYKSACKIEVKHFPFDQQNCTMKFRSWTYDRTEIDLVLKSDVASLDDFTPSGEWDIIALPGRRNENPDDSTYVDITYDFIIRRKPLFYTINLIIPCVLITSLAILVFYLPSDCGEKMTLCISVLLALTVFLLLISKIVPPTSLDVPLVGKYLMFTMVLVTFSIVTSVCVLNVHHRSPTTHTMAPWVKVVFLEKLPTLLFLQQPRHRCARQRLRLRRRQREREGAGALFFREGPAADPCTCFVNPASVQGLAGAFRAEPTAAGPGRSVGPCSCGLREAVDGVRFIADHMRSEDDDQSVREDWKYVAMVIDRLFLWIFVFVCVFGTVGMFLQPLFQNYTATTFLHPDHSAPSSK

Key:
Rattus norvegicus = organism: Rattus norvegicus; experiment: Selectivity ratio of IC50 for rat alpha6/alpha3beta2beta3 nAChR expressed in Xenopus laevis oocytes to IC50 for rat alpha3beta2 nACHR expressed in Xenopus laevis oocytes
[1] = biological target: Neuronal acetylcholine receptor; alpha3/beta2 (Rattus norvegicus) (UniProt P04757+P12390); experiment: Antagonist activity at rat alpha3beta2 nACHR expressed in Xenopus laevis oocytes assessed as inhibition of Ach-induced response at -70 mV holding potential by two electrode voltage-clamp assay relative to PeIA logIC50

SMILES	Ratio IC50 (Rattus norvegicus)	FC [1]
CC[C@H](C)[C@@H]1NC(=O)CNC(=O)[C@H](C)NC(=O)[C@@H]2CSSC[C@H](NC(=O)CN)C(=O)N[C@@H](CSSC[C@@H](C(N)=O)NC(=O)[C@H](CC(C)C)NC(=O)[C@H](CCC(=O)O)NC(=O)[C@H](CCC(=O)O)NC(=O)[C@H](Cc3cnc[nH]3)NC1=O)C(=O)N[C@@H](C)C(=O)N[C@@H](CCCNC(=N)N)C(=O)N[C@@H](C)C(=O)N[C@@H](C)C(=O)N2	9	–
CC[C@H](C)[C@@H]1NC(=O)[C@H](Cc2cnc[nH]2)NC(=O)[C@@H]2CSSC[C@H](NC(=O)CN)C(=O)N[C@@H](CSSC[C@@H](C(N)=O)NC(=O)[C@H](CC(C)C)NC(=O)[C@H](CCC(=O)O)NC(=O)[C@@H]3CCCN3C(=O)[C@H](Cc3cnc[nH]3)NC(=O)[C@H](CCC(=O)O)NC1=O)C(=O)N[C@@H](CO)C(=O)N[C@@H](Cc1cnc[nH]1)C(=O)N1CCC[C@H]1C(=O)N[C@@H](C)C(=O)N2	14	–
CC[C@H](C)[C@@H]1NC(=O)[C@H](CCC(=O)O)NC(=O)[C@@H]2CCCN2C(=O)[C@H](Cc2cnc[nH]2)NC(=O)[C@H](CC(N)=O)NC(=O)[C@H](C(C)C)NC(=O)[C@H](CO)NC(=O)[C@@H]2CSSC[C@H](NC(=O)CN)C(=O)N[C@@H](CSSC[C@@H](C(N)=O)NC1=O)C(=O)N[C@@H](CO)C(=O)N[C@@H](Cc1cnc[nH]1)C(=O)N1CCC[C@H]1C(=O)N[C@@H](C)C(=O)N2	2	-0.5
CC(C)C[C@@H]1NC(=O)[C@H](CCC(=O)O)NC(=O)[C@@H]2CCCN2C(=O)[C@H](Cc2cnc[nH]2)NC(=O)[C@H](CC(N)=O)NC(=O)[C@H]([C@@H](C)O)NC(=O)[C@H](CO)NC(=O)[C@@H]2CSSC[C@H](NC(=O)CN)C(=O)N[C@@H](CSSC[C@@H](C(N)=O)NC1=O)C(=O)N[C@@H](CO)C(=O)N[C@@H](Cc1cnc[nH]1)C(=O)N1CCC[C@H]1C(=O)N[C@@H](C)C(=O)N2	1	0.1
CC(C)C[C@@H]1NC(=O)[C@H](CCC(=O)O)NC(=O)[C@@H]2CCCN2C(=O)[C@H](Cc2cnc[nH]2)NC(=O)[C@H](CC(N)=O)NC(=O)[C@H](C(C)C)NC(=O)[C@H](Cc2cnc[nH]2)NC(=O)[C@@H]2CSSC[C@H](NC(=O)CN)C(=O)N[C@@H](CSSC[C@@H](C(N)=O)NC1=O)C(=O)N[C@@H](CO)C(=O)N[C@@H](Cc1cnc[nH]1)C(=O)N1CCC[C@H]1C(=O)N[C@@H](C)C(=O)N2	1	-1.2
CC[C@H](C)[C@@H]1NC(=O)[C@H](CCC(=O)O)NC(=O)[C@@H]2CCCN2C(=O)[C@H](Cc2cnc[nH]2)NC(=O)[C@H](CC(N)=O)NC(=O)[C@H]([C@@H](C)CC)NC(=O)[C@H](Cc2cnc[nH]2)NC(=O)[C@@H]2CSSC[C@H](NC(=O)CN)C(=O)N[C@@H](CSSC[C@@H](C(N)=O)NC1=O)C(=O)N[C@@H](CO)C(=O)N[C@@H](Cc1cnc[nH]1)C(=O)N1CCC[C@H]1C(=O)N[C@@H](C)C(=O)N2	3	–
CC(C)C[C@@H]1NC(=O)[C@H](CCC(=O)O)NC(=O)[C@@H]2CCCN2C(=O)[C@H](Cc2cnc[nH]2)NC(=O)[C@H](CCCC(=O)O)NC(=O)[C@H](C(C)C)NC(=O)[C@H](CO)NC(=O)[C@@H]2CSSC[C@H](NC(=O)CN)C(=O)N[C@@H](CSSC[C@@H](C(N)=O)NC1=O)C(=O)N[C@@H](CO)C(=O)N[C@@H](Cc1cnc[nH]1)C(=O)N1CCC[C@H]1C(=O)N[C@@H](C)C(=O)N2	81	0.8
CCCC[C@@H]1NC(=O)[C@H](CO)NC(=O)[C@@H]2CSSC[C@H](NC(=O)CN)C(=O)N[C@@H](CSSC[C@@H](C(N)=O)NC(=O)[C@H](CC(C)C)NC(=O)[C@H](CCC(=O)O)NC(=O)[C@@H]3CCCN3C(=O)[C@H](Cc3cnc[nH]3)NC(=O)[C@H](CC(N)=O)NC1=O)C(=O)N[C@@H](CO)C(=O)N[C@@H](Cc1cnc[nH]1)C(=O)N1CCC[C@H]1C(=O)N[C@@H](C)C(=O)N2	2	-0.3
CC(C)[C@@H]1NC(=O)[C@H](CO)NC(=O)[C@@H]2CSSC[C@H](NC(=O)CN)C(=O)N[C@@H](CSSC[C@@H](C(N)=O)NC(=O)[C@H](CCCNC(=N)N)NC(=O)[C@H](CCC(=O)O)NC(=O)[C@@H]3CCCN3C(=O)[C@H](Cc3cnc[nH]3)NC(=O)[C@H](CC(N)=O)NC1=O)C(=O)N[C@@H](CO)C(=O)N[C@@H](Cc1cnc[nH]1)C(=O)N1CCC[C@H]1C(=O)N[C@@H](C)C(=O)N2	0.3	0.9
CC(C)C[C@@H]1NC(=O)[C@H](CC(N)=O)NC(=O)[C@H](CO)NC(=O)[C@H](Cc2cnc[nH]2)NC(=O)[C@H](CCC(=O)O)NC(=O)[C@H](CC(C)C)NC(=O)[C@H](Cc2cnc[nH]2)NC(=O)[C@@H]2CSSC[C@H](NC(=O)CN)C(=O)N[C@@H](CSSC[C@@H](C(N)=O)NC1=O)C(=O)N[C@@H](CO)C(=O)N[C@@H](CC(N)=O)C(=O)N1CCC[C@H]1C(=O)N[C@@H](C(C)C)C(=O)N2	0.6	–
CC[C@H](C)[C@@H]1NC(=O)[C@H](Cc2cnc[nH]2)NC(=O)[C@@H]2CSSC[C@H](NC(=O)CN)C(=O)N[C@@H](CSSC[C@@H](C(N)=O)NC(=O)[C@H](CC(C)C)NC(=O)[C@H](CCC(=O)O)NC(=O)[C@@H]3CCCN3C(=O)[C@H](Cc3cnc[nH]3)NC(=O)[C@H](CCCC(=O)O)NC1=O)C(=O)N[C@@H](CO)C(=O)N[C@@H](Cc1cnc[nH]1)C(=O)N1CCC[C@H]1C(=O)N[C@@H](C)C(=O)N2	52	–
CC[C@H](C)[C@@H]1NC(=O)[C@H](Cc2cnc[nH]2)NC(=O)[C@@H]2CSSC[C@H](NC(=O)CN)C(=O)N[C@@H](CSSC[C@@H](C(N)=O)NC(=O)[C@H](CC(C)C)NC(=O)[C@H](CCC(=O)O)NC(=O)[C@@H]3CCCN3C(=O)[C@H](Cc3cnc[nH]3)NC(=O)[C@H](CC(N)=O)NC1=O)C(=O)N[C@@H](CO)C(=O)N[C@@H](Cc1cnc[nH]1)C(=O)N1CCC[C@H]1C(=O)N[C@@H](C)C(=O)N2	3	–
CC[C@H](C)[C@@H]1NC(=O)[C@H](Cc2cnc[nH]2)NC(=O)[C@@H]2CSSC[C@H](NC(=O)CN)C(=O)N[C@@H](CSSC[C@@H](C(N)=O)NC(=O)[C@H](CC(C)C)NC(=O)[C@H](CCC(=O)O)NC(=O)[C@@H]3CCCN3C(=O)[C@H](Cc3cnc[nH]3)NC(=O)[C@H](CCCCCC(=O)O)NC1=O)C(=O)N[C@@H](CO)C(=O)N[C@@H](Cc1cnc[nH]1)C(=O)N1CCC[C@H]1C(=O)N[C@@H](C)C(=O)N2	39	–
CC[C@H](C)[C@@H]1NC(=O)[C@H](Cc2cnc[nH]2)NC(=O)[C@@H]2CCCN2C(=O)[C@H](CC(N)=O)NC(=O)[C@H](CC(N)=O)NC(=O)[C@H](C(C)C)NC(=O)[C@H](CC(N)=O)NC(=O)[C@@H]2CSSC[C@H](NC(=O)CN)C(=O)N[C@@H](CSSC[C@@H](C(=O)NCC(N)=O)NC1=O)C(=O)N[C@@H](CO)C(=O)N[C@@H](Cc1cnc[nH]1)C(=O)N1CCC[C@H]1C(=O)N[C@@H](C)C(=O)N2	18	–
CC[C@H](C)[C@@H]1NC(=O)[C@H](Cc2cnc[nH]2)NC(=O)[C@@H]2CSSC[C@H](NC(=O)CN)C(=O)N[C@@H](CSSC[C@@H](C(N)=O)NC(=O)[C@H](CC(C)C)NC(=O)[C@H](CCC(=O)O)NC(=O)[C@@H]3CCCN3C(=O)[C@H](Cc3cnc[nH]3)NC(=O)[C@H](CC(=O)O)NC1=O)C(=O)N[C@@H](CO)C(=O)N[C@@H](Cc1cnc[nH]1)C(=O)N1CCC[C@H]1C(=O)N[C@@H](C)C(=O)N2	12	–
CC(C)C[C@@H]1NC(=O)[C@H](CO)NC(=O)[C@@H]2CSSC[C@@H](C(N)=O)NC(=O)[C@H](Cc3ccc(O)cc3)NC(=O)[C@H](CC(=O)O)NC(=O)[C@@H]3CCCN3C(=O)[C@H](CC(N)=O)NC(=O)[C@H](CC(N)=O)NC(=O)[C@H](C)NC(=O)[C@H](C)NC(=O)[C@H](CSSC[C@H](NC(=O)CN)C(=O)N2)NC(=O)[C@@H]2CCCN2C(=O)[C@@H]2CCCN2C1=O	1	–
